Taken from: PubChem BioAssay AID504761 (Drosophila RNAi Screening Center, 2011)
The screen tested about 22,000 reagents; shown is an unselected part of those with a known target gene and a result. In the full data, 116 (0.52%) are marked active. 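Calls depend on retest data that are not deposited; infection was ranked per plate without normalising between plates; the unit of the infection score is not given.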 Raw values vary from plate to plate and are shown uncorrected. A plus sign joins genes that one reagent is predicted to hit. No sequences are given here. Not given: the amount of reagent, the time to read-out.

Test: 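Fly genes whose silencing reduces dengue virus type 2 infection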 (primary screen)
System: D.Mel-2 cells from Drosophila
Knock-down reagent: long dsRNA against Drosophila genes
Challenge: infection with dengue virus type 2; dose and infection time not stated
Measured: 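Cells stained for dengue envelope protein and imaged; percent of infected cells per well on duplicate plates, ranked by infection, with stained nuclei counted for cell number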
Scale: infection score: higher = more virus-infected cells; cell count: higher = more cells in the well
Call rule: 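Very low infection ranking in both replicate wells (chance probability at most 0.065), then a retest showing infection dropped 1.5-fold or more at p below 0.05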
Calls: active = confirmed: knock-down lowers infection; inactive = not picked or not confirmed

no.	gene knocked down	DRSC id	infection score, replicate 1	infection score, replicate 2	cell count, replicate 1	cell count, replicate 2	outcome
1	Mco3	DRSC15926	3.3	14	6463	2664	inactive
2	CG13713	DRSC08322	2.08	2.03	5916	6162	inactive
3	CG10949	DRSC02112	4.99	3.01	6374	6379	inactive
4	CG10949	DRSC27310	21	1.62	6650	6037	inactive
5	Gfat2	DRSC14598	3.18	15	5728	5510	inactive
6	Gfat2	DRSC26948	5.97	4.64	6317	6248	inactive
7	CG15812	DRSC08479	0.66	3.64	5872	5876	inactive
8	Tgs1 + moi	DRSC24535	8.38	11.6	6145	6352	inactive
9	Etf-QO	DRSC06111	7.35	27.6	5865	5746	inactive
10	Coq7 + shf	DRSC18448	15.4	7.34	6553	6481	inactive
11	EMC2B + EMC2A	DRSC15241	11.7	21	6722	6581	inactive
12	vis	DRSC26134	6.88	4.41	4038	5983	inactive
13	uzip	DRSC04722	12.3	38.6	6196	2890	inactive
14	uzip	DRSC30045	25.1	6.76	2102	6216	inactive
15	SMC6	DRSC15829	5.13	2.87	6185	6406	inactive
16	SMC6	DRSC25997	6.23	11.3	6134	6528	inactive
17	Cyp309a1	DRSC00747	1.08	5.84	6478	6468	inactive
18	D19B	DRSC11134	1.09	0.73	5892	5726	inactive
19	D19B	DRSC25382	2.44	2.18	6434	6423	inactive
20	Ythdf	DRSC16036	0.74	7.99	6041	6093	inactive
21	Ythdf	DRSC16037	0.84	2.07	6275	5905	inactive
22	APC10	DRSC06071	25.8	25.1	5505	4852	inactive
23	CG4927	DRSC06903	5.75	9.21	6760	5894	inactive
24	CG4927	DRSC28614	14.5	10.7	5270	3718	inactive
